Results of unrelated studies side by side (data: NIAID ChemDB).

All rows: growth or infection tests; agent: Herpes simplex virus 1; cells: E6SM; method: cytopathic effect; measure: EC50

Lines come from different laboratories, so protocols vary.

compound	strain or isolate	value
Cc1cccc2c1OP(=O)(OC[C@@H]1C=C[C@H](n3cnc4c(NC5CC5)nc(N)nc43)C1)OC2	KOS	4.8 µg/mL
Nc1ncnc2c1ncn2[C@@H]1O[C@H](C#CBr)[C@@H](O)[C@H]1O	VMW1837 (TK-)	6 µM
Nc1nc2c(ncn2[C@H]2C=C[C@@H](CO)C2)c(=O)[nH]1	TK-deficient acyclovir-resistant	32 µg/mL
C[C@H]1C[C@@H](n2cnc3c(N)ncnc32)[C@H](O)[C@@H]1O	KOS	300 µg/mL
Nc1nc(Cl)c2nnn(C[C@H]3CC[C@@H](CO)C3)c2n1	KOS	>200 µg/mL
O=c1[nH]c(=O)n([C@H]2C[C@H](O)[C@@H](CO)S2)cc1C1CCC1	KOS McIntyre F	2.8 µM
NC(=S)N/N=C(\c1ccccn1)C12CC3CC(CC(C3)C1)C2	TK-	>400 µg/mL
O=C(O)Cc1cc(O)ccc1O	KOS	7 µg/mL
Nc1ncnc2c1ncn2[C@@H]1OC(C#CI)[C@@H](O)[C@H]1O	VMW1837 (TK-)	0.26 µM
C=C=CSC[C@H]1O[C@@H](n2cnc3c(N)ncnc32)[C@H](O)[C@@H]1O	KOS	250 µM
Nc1nc(N)c2ncn(C[C@H]3CC[C@@H](CO)C3)c2n1	VMW1837 (TK-)	300 µg/mL
OC[C@H]1O[C@@H](n2cnc3cc(Cl)c(Cl)cc32)[C@@H](O)[C@H]1O	KOS	>40 µg/mL
O=C(O)Cc1ccc(O)c(O)c1	B2006 (TK-)	12 µg/mL
Nc1nc2c(ncn2C[C@H]2CC[C@@H](CO)C2)c(=O)[nH]1	KOS	>400 µg/mL
CC(C)[Si]1(C(C)C)OC[C@H]2O[C@@H](n3cnc4cc(Cl)c(Cl)cc43)[C@@H](O)[C@H]2O[Si](C(C)C)(C(C)C)O1	KOS	>100 µg/mL
O=c1[nH]c(=O)n([C@H]2C[C@H](O)[C@@H](CO)O2)cc1C1CCCC1	KOS McIntyre F	115 µM
O=C(O)c1cc(O)ccc1O	B2006 (TK-)	20 µg/mL
Cc1ccc2c(c1)COP(=O)(OCCOCn1cnc3c(=O)[nH]c(N)nc31)O2	KOS	0.26 µg/mL
Nc1nc2c(nnn2C[C@H]2CC[C@@H](CO)C2)c(=O)[nH]1	B2006 (TK-)	>200 µg/mL
O[C@@H]1CC(n2cnc3cc(Cl)c(Cl)cc32)OC[C@@H]1O	KOS	>100 µg/mL
Nc1nc2c(ncn2COCCOP2(=O)OCc3ccccc3O2)c(=O)[nH]1	TK-deficient acyclovir-resistant	4.8 µg/mL
Clc1cc2nc[nH]c2cc1Cl	KOS	>10 µg/mL
Cc1cn([C@H]2C[C@H](O)[C@@H](CO)O2)c(=O)[nH]c1=O	KOS McIntyre F	>2000 µM
OC[C@H]1O[C@@H](n2cnc3cc(Cl)c(Cl)cc32)[C@H](O)[C@@H]1O	KOS	>10 µg/mL
O=c1[nH]c(=O)n([C@H]2C[C@H](O)[C@@H](CO)O2)cc1/C=C/Br	KOS McIntyre F	0.18 µM
Cc1cc(O)ccc1O	KOS	120 µg/mL
O=c1[nH]c(=O)n([C@H]2C[C@H](O)[C@@H](CO)S2)cc1C1CC1	KOS McIntyre F	0.17 µM
Nc1nc(NC2CC2)c2ncn([C@H]3C=C[C@@H](COP4(=O)OCc5cc(Cl)ccc5O4)C3)c2n1	TK-deficient acyclovir-resistant	24 µg/mL

For reference, 3 entries again:

compound,strain or isolate,value
CC(C)[Si]1(C(C)C)OC[C@H]2O[C@@H](n3cnc4cc(Cl)c(Cl)cc43)[C@@H](O)[C@H]2O[Si](C(C)C)(C(C)C)O1,KOS,>100 µg/mL
Nc1nc2c(ncn2COCCOP2(=O)OCc3ccccc3O2)c(=O)[nH]1,TK-deficient acyclovir-resistant,4.8 µg/mL
O=C(O)Cc1cc(O)ccc1O,KOS,7 µg/mL

ECn is the concentration giving n% inhibition of infection, replication or growth.